≈ marks a conversion by molar mass, not a printed value.

The text below walks through data of patent US20250346633A1, “MACOLACINS AND METHODS OF USE THEREOF” (priority 2021, published 2025).

The subject of this assay is N. gonorrhoeae. The assay is described as follows: MIC assay (microbial susceptibility). Conditions: intrinsically colistin resistant (chromosomally encoded PEtN transferase).

By MIC is commonly meant the least concentration at which growth counts as inhibited. A higher MIC goes with weaker potency. `CC[C@H](C)[C@@H]1NC(=O)[C@@H](CC(C)C)NC(=O)[C@H](CCN)NC(=O)[C@@H](NC(=O)[C@@H](CO)NC(=O)[C@@H](NC(=O)[C@H](CCN)NC(=O)c2ccc(-c3ccccc3)cc2)[C@@H](C)O)CCNC(=O)[C@H](CC(C)C)NC(=O)[C@H](CCN)NC(=O)[C@H](CCN)NC1=O` [Biphenyl-macolacin] had an MIC of 0.125 µg/mL (≈ 0.103 µM).
